Results deposited as PubChem BioAssay AID624099 (ICCB-Longwood, 2012).
Aim: 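Host factors E2 relies on to silence an HPV18 LCR reporter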 (primary screen). Cell system: human C33A cervical carcinoma cells (HPV-negative) stably expressing BPV1 E2 and an HPV18 LCR luciferase reporter. Reagent: siRNA pool against human genes, 40 nM. Time to read-out: 72 h. Detection: 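Per-well luciferase luminescence, z-scored on each plate against the plate mean and SD with control wells left out, then averaged across three replicate plates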. Scale: mean z-score and z-score: higher = stronger reporter signal, weaker E2 silencing. Rule for the call: 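Mean z ≥ 2 together with z ≥ 2 in two or more of the three replicates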.
The deposit covers about 21,000 reagents; this is a part drawn at random. 497 of them (2.4%) were called active. 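Higher z means weaker E2 silencing; only reporter increases were scored, and knock-downs that hurt cell survival may mask genuine repressor factors.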 Reagents against one gene are numbered here.

Gene,pool no.,mean z-score,"z-score, replicate A","z-score, replicate B","z-score, replicate C",call
SMURF2,1,-1.39,-1.17,-1.52,-1.47,inactive
KIF22,1,4.74,4.97,4.66,4.6,active
PINX1,1,0.52,0.99,0.45,0.11,inactive
PLCD1,1,0.88,0.95,0.65,1.05,inactive
LOC401062 (retired record),1,-0.6,-0.32,-0.49,-0.98,inactive
TNFAIP2,1,2.74,1.63,3.23,3.35,active
SH3TC2-DT,1,1.37,1.47,1.49,1.14,inactive
LINC00470,1,-0.44,-0.55,-0.17,-0.59,inactive
HSD17B8,1,-0.68,-0.63,-0.49,-0.94,inactive
ZNF702P,1,1.3,1.15,1.65,1.09,inactive
LYSMD3,1,-1.54,-1.82,-1.28,-1.54,inactive
CNIH4,1,-0.68,-0.75,-0.51,-0.78,inactive
MRPL51,1,-0.13,0.05,-0.23,-0.2,inactive
UBP1,1,-0.15,-0.26,-0.05,-0.13,inactive
UNG,1,0.95,0.73,1.23,0.89,inactive
TSR2,1,0.35,0.59,-0.18,0.62,inactive
CPAMD8P1,1,-0.88,-0.93,-0.84,-0.88,inactive
CPAMD8P1,2,-0.95,-1.03,-0.85,-0.97,inactive
PCNX2,1,1.27,1.45,1.39,0.97,inactive
TAAR8,1,-0.62,-0.67,-0.57,-0.61,inactive
CARTPT,1,-1.84,-1.92,-1.83,-1.77,inactive
LIAT1,1,0.11,0.06,0.02,0.25,inactive
FRG2C,1,0.42,0.28,0.36,0.6,inactive
PRSS58,1,0.34,0.24,0.58,0.19,inactive
PRKAG2,1,1.23,1.51,1.15,1.02,inactive
CUL9,1,0.01,0.01,0.17,-0.14,inactive
MMP14,1,1.5,0.98,2.26,1.26,inactive
TMEM179B,1,-1.3,-1.38,-1.24,-1.3,inactive
LOC401954 (retired record),1,-0.79,-0.85,-0.7,-0.81,inactive
PRED4 (retired record),1,0.46,0.39,0.23,0.75,inactive
PGAP3,1,-0.39,-0.63,-0.23,-0.33,inactive
SHANK3,1,-0.89,-1.09,-0.84,-0.74,inactive
RPS19,1,-2.38,-2.5,-2.38,-2.27,inactive
BBS4,1,1.2,1.12,1.18,1.29,inactive
NKAPL,1,-0.9,-0.83,-0.97,-1.13,inactive
KLF6,1,-1.93,-1.38,-2.14,-2.25,inactive
BIRC8,1,-0.75,-0.47,-0.84,-0.95,inactive
KLHL30,1,-0.67,-0.33,-0.75,-0.93,inactive
LOC401291 (retired record),1,-0.5,-0.59,-0.37,-0.53,inactive
NIBAN3,1,-1.18,-0.95,-1.51,-1.07,inactive
PNCK,1,0.5,0.57,0.58,0.35,inactive
KRT35,1,0.3,0.62,0.36,-0.09,inactive
ZNF559,1,0.44,0.49,0.33,0.52,inactive
MIR663AHG,1,-0.9,-0.9,-0.92,-0.87,inactive
JMJD7-PLA2G4B,1,-0.37,-0.45,-0.23,-0.42,inactive
RICTOR,1,-0.18,-0.34,0.13,-0.34,inactive
RICTOR,2,0.61,0.22,1,0.09,inactive
CDK5R1,1,0.5,0.43,0.42,0.64,inactive
LEPROTL1,1,1.14,0.86,1.31,1.25,inactive
VPS26C,1,-0.21,-0.17,-0.25,-0.22,inactive
RARS1,1,0.35,0.33,0.38,0.36,inactive
HNRNPH3,1,0.68,0.58,0.78,0.68,inactive
VPREB1,1,0.61,0.66,0.69,0.49,inactive
LOC340511 (retired record),1,-1.32,-1.07,-1.74,-1.16,inactive
DXO,1,0.69,0.69,0.76,0.62,inactive
C15orf40,1,0.88,0.48,0.99,1.17,inactive
LOC441038 (retired record),1,-0.8,-1.01,-0.8,-0.6,inactive
CEP170P1,1,0.4,0.74,0.04,0.43,inactive
PTGES,1,0.01,0,-0.03,0.05,inactive
SLC37A1,1,-0.09,0.54,-0.58,-0.24,inactive
PJA2,1,1.21,1.23,1.07,1.33,inactive
RNF44,1,1.09,0.72,1.49,1.06,inactive
CXCL12,1,-0.73,-0.7,-0.7,-0.8,inactive
RASSF3,1,-0.09,-0.23,0.11,-0.16,inactive
LOC402252 (retired record),1,-0.06,-0.06,0.05,-0.18,inactive
MAEA,1,-0.29,-0.46,-0.38,-0.02,inactive
NTNG2,1,-0.69,-0.63,-0.8,-0.65,inactive
PIERCE2,1,0.38,0,0.88,0.26,inactive
NMRAL1,1,1.29,1.42,1.36,1.09,inactive
H3C11,1,0.95,1.01,0.98,0.85,inactive
PTPN22,1,-0.46,-0.16,-0.71,-0.51,inactive
ADGRE2,1,-0.48,-0.6,-0.55,-0.3,inactive
SSR4,1,-1.86,-1.74,-1.88,-1.98,inactive

Entries listed so far marked active:
Gene,pool no.,mean z-score,"z-score, replicate A","z-score, replicate B","z-score, replicate C",call
KIF22,1,4.74,4.97,4.66,4.6,active
TNFAIP2,1,2.74,1.63,3.23,3.35,active
